Anti-infective test results gathered from many reports (values: NIAID ChemDB through PubChem).

Shared fields: cytotoxicity tests; cell line: MT-4; endpoint: CC50

CCn: concentration that lowers growth or viability of the cells by n%. An empty or dashed field is not shown. Conditions beyond the fields shown may differ between rows.

compound	method	value
N#CCN1C(=O)N(Cc2cccc(F)c2)S(=O)(=O)n2cccc21	MTT	187 µM
COc1ccc(-c2cc(-c3ccccc3)c(C#N)c(=O)n2[C@@H]2O[C@H](CO)[C@H](O)[C@H](O)[C@H]2O)cc1	XTT	>21.5 µM
Cc1cc(C#N)cc(C)c1Oc1nc(Nc2ccc(C#N)cc2)nc(N)c1Br	MTT	>4.6 µM
COC(=O)N1CCn2c(nc(C(=O)NCc3ccc(F)cc3)c(O)c2=O)C1CN(C)C	microscopy	>1 µM
C[C@]1(n2ccc(=O)[nH]c2=O)CO[C@@H](CO)O1	MTT	>100 µM
C=C1[C@H](OC(C)=O)[C@H]2[C@@H](OC(C)=O)[C@](C)(OC(C)=O)C[C@]2(OC(C)=O)C(=O)[C@@H](C)/C=C/C(C)(C)C(=O)[C@@H](OCC(C)C)[C@H]1OC(C)=O	MTT	69 µg/mL
CC(C)C(N)C(=O)O[C@@H](C[C@@H](Cc1ccccc1)C(=O)N[C@H]1c2ccccc2C[C@H]1O)CN1CCN(Cc2cccnc2)C[C@H]1C(=O)NC(C)(C)C	MTT	>100 µM
Cn1ccc(CN2CCn3c(nc(C(=O)NCc4ccc(F)cc4)c(O)c3=O)C2(C)C)n1	microscopy	>1 µM
O=C1NCc2c1ccnc2-c1cc(-c2cc(Br)cc(OC(F)(F)F)c2)n(-c2cccnc2)n1	resazurin	>3.3 µM
N#Cc1ccc(Nc2nc(Oc3ccc(-c4ccc(C#N)cc4)cc3Cl)c3sccc3n2)cc1	MTT	33.6 µM
COc1ccc(C2CC(=O)Nc3nc(-c4ccc5ccccc5c4)nn32)cc1	visual reading	>100 µg/mL
Cc1ccnc(N2C(=O)CSC2c2c(F)ccc(C)c2Cl)n1	-	155.9 µM
CN(C)c1ccn([C@@H]2O[C@H](CO[Si](C)(C)C(C)(C)C)C3(OS(=O)(=O)C=C3N)[C@H]2O[Si](C)(C)C(C)(C)C)c(=O)n1	-	>166 µM
Cc1cn([C@H]2C[C@H](F)[C@@H](CO)O2)c(=O)[nH]c1=O	-	11 µM
Cc1cc(C)nc(N2C(=O)CSC2c2c(C(F)(F)F)ccc(Cl)c2F)c1	-	163 µM
O=S(=O)(O)O.OCC1O[C@H](O)[C@@H](O)[C@H](O)C1O	-	232 µg/mL
CCOCn1c(Cc2ccccc2)c(-c2ccccc2)c(=O)[nH]c1=O	-	>100 µM
N#Cc1cc(-n2nc(-c3nccc4c3CNC4=O)cc2-c2cc(F)cc(Cl)c2)ccc1F	resazurin	>3.3 µM
COC(=O)[C@H](C)NP(=O)(OC[C@H]1C=C[C@@H](n2ccc3c(N)ncnc32)C1)Oc1ccccc1	trypan blue	26 µM
CC(C)CCC[C@@H](C)[C@H]1CC[C@H]2[C@@H]3CC[C@H]4C[C@@H](NC(=O)CC=C(c5cc(Cl)c(O)c(C(=O)O)c5)c5cc(Cl)c(O)c(C(=O)O)c5)CC[C@]4(C)[C@H]3CC[C@]12C	-	60 µM
CCCCC1(CCc2cccc(NS(=O)(=O)c3ccc(C)cc3)c2)COC(=O)C(C(CC)c2cccc(NS(=O)(=O)c3ccc(C)cc3)c2)=C1O	-	66.6 µM
Cc1ccc(-c2cc(-c3ccccc3)c(C#N)c(=O)n2[C@@H]2O[C@H](CO)[C@H](O)[C@H](O)[C@H]2O)cc1	XTT	>22.3 µM
CNc1nc(=O)n([C@@H]2O[C@H](CO[Si](C)(C)C(C)(C)C)C3(OS(=O)(=O)C=C3N)[C@H]2O[Si](C)(C)C(C)(C)C)cc1C	-	26 µM
CN(C)C(=O)C(=O)N(C)C1CN(Cc2ccccc2)CCn2c1nc(C(=O)NCc1ccc(F)cc1)c(O)c2=O	microscopy	>1 µM
COc1cccc(F)c1C1SCC(=O)N1c1cccc(C)c1	-	144.4 µM
COc1c(Cl)cc(C(=CCC(=O)N[C@@H]2CC[C@@]3(C)[C@@H](CC[C@@H]4[C@@H]3CC[C@]3(C)[C@@H]([C@H](C)CCCC(C)C)CC[C@@H]43)C2)c2cc(Cl)c(OC)c(C(=O)O)c2)cc1C(=O)O	-	6 µM
COC(=O)C(C)(C)NP(=O)(OC[C@H]1C=C[C@@H](n2ccc3c(N)ncnc32)C1)Oc1ccccc1	trypan blue	>10 µM
C[C@@]1(n2ccc(N)nc2=O)CO[C@@H](CO)O1	MTT	>100 µM
N#Cc1ccc(Nc2nc(Oc3c(F)cc(-c4ccc(C#N)cc4)cc3F)c3sccc3n2)cc1	MTT	78.6 µM
C[C@H](NP(=O)(OC[C@H]1C=C[C@@H](n2ccc3c(N)ncnc32)C1)Oc1ccccc1)C(=O)OCc1ccccc1	trypan blue	>10 µM
CC(C)(C)[Si](C)(C)OC[C@H]1O[C@@H](n2cc(F)c(=O)[nH]c2=O)[C@H](O[Si](C)(C)C(C)(C)C)C12OS(=O)(=O)C=C2N	-	5 µM
COc1c(Cl)cc(C(=CCN[C@@H]2CC[C@@]3(C)[C@@H](CC[C@@H]4[C@@H]3CC[C@]3(C)[C@@H]([C@H](C)CCCC(C)C)CC[C@@H]43)C2)c2cc(Cl)c(OC)c(C(=O)O)c2)cc1C(=O)O	-	87 µM
Cc1cn([C@H]2C[C@H](F)[C@@H](CO)O2)c(=O)nc1N	-	190 µM
N#Cc1cccc(-c2cc(-c3cccc4c3CNC4=O)nn2-c2ccc(F)cc2)c1	resazurin	>3.3 µM
COc1cccc(F)c1C1SCC(=O)N1c1cc(C)ccn1	-	≥220 µM
CC(=O)OC1[C@]2(C)[C@H]3CC(C)(C)C(=O)[C@@H]3C[C@@]1(OC(C)=O)[C@H](OC(=O)CO)[C@H]1[C@@H](OC(=O)c3ccccc3)[C@@H](C)C[C@]1(O)[C@@H]2OC(C)=O	MTT	>100 µg/mL
CNc1ccn([C@@H]2O[C@H](CO[Si](C)(C)C(C)(C)C)C3(OS(=O)(=O)C=C3N)[C@H]2O[Si](C)(C)C(C)(C)C)c(=O)n1	-	12 µM
CCCCC1(CCc2cccc(NS(=O)(=O)c3ccccn3)c2)COC(=O)C(C(CC)c2cccc(NS(=O)(=O)c3ccccn3)c2)=C1O	-	36.3 µM
O=C1NCc2c1cccc2-c1cc(-c2cccc(Cl)c2)n(-c2cccc(C(F)(F)F)c2)n1	resazurin	>3.3 µM
O=C1N(Cc2ccc(Cl)cc2Cl)c2cccn2S(=O)(=O)N1Cc1cccc(F)c1	MTT	>275 µM
O=C1NCc2c1ccnc2-c1cc(-c2cc(Cl)cc(OC(F)F)c2)n(-c2ccnc(Cl)c2)n1	resazurin	>3.3 µM
CCc1cc(NCc2nc(C)c(C)cc2OC)c(=O)[nH]c1C	-	>50 µM
O=C1NC(=O)c2c1cccc2-c1cc(-c2cc(F)cc(OC(F)(F)F)c2)n(-c2cccnc2)n1	resazurin	>3.3 µM
COC(=N)c1cc(=O)[nH]c(=O)n1[C@@H]1O[C@H](CO[Si](C)(C)C(C)(C)C)C2(OS(=O)(=O)C=C2N)[C@H]1O[Si](C)(C)C(C)(C)C	-	11 µM
Cc1ccnc2c1NC(=O)c1cccnc1N2C1CC1	MTT	>15 µM
O=C1CC(c2ccc([N+](=O)[O-])cc2)n2nc(C3CCCCC3)nc2N1	visual reading	≥100 µg/mL
COc1cccc(OC)c1C1SCC(=O)N1c1cc(C)ccn1	-	249 µM
O=C1NCc2c1ccnc2-c1cc(-c2cc(F)cc(OC(F)F)c2)n(-c2cccnc2)n1	resazurin	>3.3 µM
COc1ccc(C2CC(=O)Nc3nc(-c4ccncc4)nn32)cc1	visual reading	>100 µg/mL
O=C1N(Cc2ccc(Cl)cc2Cl)c2cccn2S(=O)(=O)N1Cc1cccc(Cl)c1	MTT	251 µM
C=C1[C@H](OC(C)=O)[C@H]2[C@@H](OC(C)=O)[C@@H](C)C[C@]2(OC(C)=O)C(=O)[C@@H](C)/C=C/C(C)(C)C(=O)[C@@H](OCC(C)C)[C@H]1OC(C)=O	MTT	45 µg/mL
COC(=O)[C@H](Cc1ccccc1)NP(=O)(OC[C@H]1C=C[C@@H](n2ccc3c(N)ncnc32)C1)Oc1ccccc1	trypan blue	31.5 µM
N#Cc1c(-c2ccccc2)cc(-c2ccccc2)n([C@@H]2O[C@H](CO)[C@H](O)[C@H](O)[C@H]2O)c1=O	XTT	>59.9 µM
CC(C)CCC[C@@H](C)[C@H]1CC[C@H]2[C@@H]3CC[C@H]4C[C@@H](NC(=O)C=C(c5cc(Cl)c(O)c(C(=O)O)c5)c5cc(Cl)c(O)c(C(=O)O)c5)CC[C@]4(C)[C@H]3CC[C@]12C	-	52.2 µM
Cc1ccnc(N2C(=O)CSC2c2c(F)ccc(C)c2Cl)c1	-	295.3 µM
CNC(=O)CN1CCn2c(nc(C(=O)NCc3ccc(F)cc3)c(O)c2=O)C1(C)C	microscopy	>1 µM
Cc1cc(-c2ccc(C#N)cc2)ccc1Oc1nc(Nc2ccc(C#N)cc2)nc2ccsc12	MTT	18.5 µM
Nc1ncnc2c1ncn2[C@H]1CO[C@@H](CCP(=O)(O)O)O1	-	>100 µg/mL
N#Cc1ccc(Nc2nc(Oc3ccc(-c4ccc(C#N)cc4)c([N+](=O)[O-])c3)c3sccc3n2)cc1	MTT	70.2 µM
C=Cc1cn([C@H]2C[C@H](F)[C@@H](CO)O2)c(=O)[nH]c1=O	-	6 µM
CCc1cc(CNc2cc(CC)c(C)[nH]c2=O)c(OC)nc1C	-	>50 µM
Cc1cn([C@H]2C=C[C@@H](CP(=O)(O)O)O2)c(=O)[nH]c1=O	-	196 µg/mL
C=C1CN(S(=O)(=O)c2ccc(C)cc2)CCCN(Cc2ccccc2)CCCN(S(=O)(=O)c2ccc(C)cc2)C1	-	39 µM
CC(=O)N1CCn2c(nc(C(=O)NCc3ccc(F)cc3)c(O)c2=O)C1COCc1ccccc1	microscopy	>10 µM
CCc1cc(NCc2cc(C)c(C)nc2OC)c(=O)[nH]c1C	-	>50 µM
Cc1cn([C@@]2(C)CO[C@@H](CO)O2)c(=O)[nH]c1=O	MTT	>100 µM
COC(=O)[C@H](Cc1ccccc1)NP(=O)(OC[C@@H]1C=C[C@H](n2ccc3c(N)ncnc32)C1)Oc1ccccc1	trypan blue	42 µM
CCCCC1(CCc2cccc(NS(=O)(=O)c3ccc(C#N)cc3)c2)COC(=O)C(C(CC)c2cccc(NS(=O)(=O)c3ccc(C#N)cc3)c2)=C1O	-	46.9 µM
Cc1cc(Nc2ccc(C(=O)NCCF)cc2F)nc(-c2cccnc2)n1	XTT	77 µM
O=C(NCc1c(F)cc(F)cc1F)c1cn2c(c(O)c1=O)C(=O)N[C@H]1CCCC[C@H]12	luminescence	10.3 µM
O=C(COc1cccc2ccccc12)NN=CCc1ccccc1	MTT	62.68 µg/mL
CCc1cn([C@H]2C[C@H](F)[C@@H](CO)O2)c(=O)[nH]c1=O	-	500 µM
N#Cc1ccc(Nc2nc(Oc3ccc(-c4ccc(C#N)cc4)c(C(F)(F)F)c3)c3sccc3n2)cc1	MTT	26.5 µM
Cc1ccc(-c2cc(-c3ccco3)c(C#N)c(=O)n2[C@@H]2O[C@H](CO)[C@@H](O)[C@H](O)[C@H]2O)cc1	XTT	>82.1 µM

10 of the rows above, restated:

compound	method	value
Nc1ncnc2c1ncn2[C@H]1CO[C@@H](CCP(=O)(O)O)O1	-	>100 µg/mL
Cc1cc(Nc2ccc(C(=O)NCCF)cc2F)nc(-c2cccnc2)n1	XTT	77 µM
C=C1CN(S(=O)(=O)c2ccc(C)cc2)CCCN(Cc2ccccc2)CCCN(S(=O)(=O)c2ccc(C)cc2)C1	-	39 µM
C[C@]1(n2ccc(=O)[nH]c2=O)CO[C@@H](CO)O1	MTT	>100 µM
O=C1CC(c2ccc([N+](=O)[O-])cc2)n2nc(C3CCCCC3)nc2N1	visual reading	≥100 µg/mL
CCc1cc(NCc2nc(C)c(C)cc2OC)c(=O)[nH]c1C	-	>50 µM
CNc1ccn([C@@H]2O[C@H](CO[Si](C)(C)C(C)(C)C)C3(OS(=O)(=O)C=C3N)[C@H]2O[Si](C)(C)C(C)(C)C)c(=O)n1	-	12 µM
CCOCn1c(Cc2ccccc2)c(-c2ccccc2)c(=O)[nH]c1=O	-	>100 µM
N#Cc1c(-c2ccccc2)cc(-c2ccccc2)n([C@@H]2O[C@H](CO)[C@H](O)[C@H](O)[C@H]2O)c1=O	XTT	>59.9 µM
COC(=O)[C@H](Cc1ccccc1)NP(=O)(OC[C@@H]1C=C[C@H](n2ccc3c(N)ncnc32)C1)Oc1ccccc1	trypan blue	42 µM